Source: patent publication US8309554B2 (priority 2008, dated 2012)

What was measured:
[1] = tested on: H460 non small cell lung xenograft; assay: H460 non small cell lung xenograft mouse model, tumor growth delay; assay type: in vivo; conditions: 25 mg/kg in saline, i.v. on day 1 and day 8

Substance: 3-(4-(N,N-bis-(2-Chloroethyl)amino)phenoxysulfonyl-(2-(lysylamino)pyridine-5-yl-methyl))methyl-2-nitrothiophene
- tumor growth delay to 500 mm^3 [1]: 6 days
- water solubility (Water solubility): freely water soluble
